Pooled drug test results. Numbers come from NIAID ChemDB, via PubChem.

Shared fields: growth or infection tests; agent: HIV-1; read by: cytopathic effect / MTT; measure: EC50

An empty or dashed field is not shown. ECn: concentration that inhibits the pathogen or its effect by n%. Conditions beyond the fields shown may differ between rows.

SMILES	cell line	changes	strain or isolate	value
Nc1ccn([C@H]2CC[C@@H](CO)O2)c(=O)n1	CEM		IIIB	0.019 µM
CC(C)=CCN1Cc2cc(Cl)cc3[nH]c(=S)n(c23)C[C@@H]1C	MT-4	RT-A98S	Recombinant mutant	0.045 µM
CCCCCCCCCCCCCCCC(=O)Nc1cc(S(=O)(=O)O)cc2cc(S(=O)(=O)O)cc(O)c12	MT-4		IIIB	37 µM
COc1nc(Cc2cc(C)cc(C)c2)cc(=O)[nH]1	MT-4		IIIB	34.4 µM
C[C@H](CCC(=O)O)[C@H]1CC[C@H]2[C@@H]3CC[C@@H]4C[C@H](OS(=O)(=O)O)CC[C@]4(C)[C@H]3C[C@H](OS(=O)(=O)O)[C@]12C	MT-4		IIIB	>311 µg/mL
Cc1c(C(C)C)s/c(=N\S(=O)(=O)c2cc(Cl)ccc2C#N)n1C	MT-4		IIIB	0.0017 µM
C[C@H](CCC(=O)O)[C@H]1CC[C@H]2[C@@H]3[C@H](OS(=O)(=O)O)C[C@@H]4C[C@H](O)CC[C@]4(C)[C@H]3C[C@H](O)[C@]12C	MT-4		IIIB	>500 µg/mL
Fc1cccc(F)c1Cn1c(-c2c(F)cccc2F)nc2c(Br)cccc21	MT-4	RT-Y188C		3.4 µM
Cc1cc(C)cc(Cc2cc(=O)[nH]c(OC(C)C)n2)c1	MT-4		IIIB	3.1 µM
CCc1c(Sc2cccc3ccccc23)nc(SCC(=O)c2ccccc2)[nH]c1=O	MT-4		IIIB	0.37 µM
O=c1[nH]cnc2c1ncn2[C@H]1CC[C@@H](CO)O1	MT-4	RT-D67N K70R K172R	IIIB	10.8 µM
C[C@H](CCC(=O)O)[C@H]1CC[C@H]2C3[C@H](OS(=O)(=O)O)C[C@@H]4C[C@H](OS(=O)(=O)O)CC[C@]4(C)[C@H]3CC[C@]12C	MT-4		IIIB	223 µg/mL
CCC(C)Oc1nc(Cc2cc(C)cc(C)c2)cc(=O)[nH]1	MT-4		IIIB	2.7 µM
CC(=O)Nc1cccc2c1nc(-c1c(F)cccc1F)n2Cc1c(F)cccc1F	MT-4	RT-L100I		31.6 µM
Nc1ccn([C@H]2CC[C@@H](CO)O2)c(=O)n1	MT-4		Recombinant wild type	4.005 µM
CC(C)c1nc(SCC(N)=O)n(Cc2ccncc2)c1CC1CCCCC1	MT-4		IIIB	3.75 µM
Fc1c(F)c(CN2CCCNCCNCCCNCC2)c(F)c(F)c1CN1CCCNCCNCCCNCC1	SupT1 + Sup-T1		168.10	0.02 µg/mL
CC(C)c1s/c(=N\S(=O)(=O)c2cc(Br)ccc2O)n(C)c1Cl	MT-4		IIIB	0.037 µM
Nc1nc(NC2CC2)c2ncn([C@H]3C=C[C@@H](CO)C3)c2n1	MT-4		IIIB	7.24 µM
CC(C)=CCN1Cc2cc(Cl)cc3[nH]c(=S)n(c23)C[C@@H]1C	MT-4		IIIB	0.0015 µM
CCOCn1c(SCC(N)=O)nc(C(C)C)c1Cc1cc(C)cc(C)c1	MT-4		IIIB	0.31 µM
CC(C)c1s/c(=N\S(=O)(=O)c2cc(Cl)ccc2O)n(C)c1Cl	MT-4		IIIB	0.027 µM
Cc1cccc(Cc2nc(OC3CCCCC3)[nH]c(=O)c2C)c1	MT-4		IIIB	16.7 µM
O=S(=O)(O)c1cc(NS(=O)(=O)c2ccc(-c3ccc(S(=O)(=O)Nc4cc(S(=O)(=O)O)c5cccc(S(=O)(=O)O)c5c4)cc3)cc2)cc2c(S(=O)(=O)O)cccc12	MT-4		IIIB	18 µM
CCn1c(=O)c(C)cn([C@@H]2O[C@H](CO[Si](C)(C)C(C)(C)C)C3(OS(=O)(=O)C=C3N)[C@H]2O[Si](C)(C)C(C)(C)C)c1=O	MT-4	RT-A98S E138A	Recombinant mutant	0.906 µM
CC(=O)Nc1ccc(Cl)cc1S(=O)(=O)/N=c1\sc(C(C)(C)C)c(C)n1C	MT-4		IIIB	2.7 µM
Cc1cn([C@H]2C[C@H](N=[N+]=[N-])[C@@H](CO)O2)c(=O)[nH]c1=O	MT-4		RF	0.0011 µM
Cc1cn([C@@H]2CC[C@H](CO)O2)c(=O)[nH]c1=O	MT-2		IIIB	>100 µM
NC(=O)c1ncn([C@H]2O[C@@H](COP(=O)(O)OC[C@@H]3C=C[C@H](n4cnc5c(=O)[nH]cnc54)O3)[C@H](O)[C@@H]2O)n1	MT-4	RT-D67N K70R K172R	IIIB	>17.5 µM
CC(C)c1s/c(=N\S(=O)(=O)c2cc(C#N)ccc2C#N)n(C)c1Cl	MT-4		IIIB	0.0036 µM
c1ccc2c(CN3CCCNCCNCCCNCC3)cc(CN3CCCNCCNCCCNCC3)cc2c1	MT-4		RF	0.36 µg/mL
CCc1c(Sc2cc(C)cc(C)c2)n(COCCO)c(=O)[nH]c1=O	MT-4	RT-D67N K70R K172R	IIIB	0.014 µM
Nc1cccc2c1nc(-c1c(F)cccc1F)n2Cc1c(F)cccc1F	MT-4	RT-V179D		0.3 µM
O=c1[nH]cnc2c1ncn2[C@H]1CC[C@@H](CO)O1	MT-4		IIIB	5.37 µM
c1cc(CN2CCCNCCCNCCNCCC2)cc(CN2CCCNCCCNCCNCCC2)c1	MT-4		RF	1.94 µg/mL
CCc1[nH]c(=S)[nH]c1Cc1cc(C)cc(C)c1	MT-4		IIIB	4.46 µM
c1ncc(CN2CCCNCCNCCCNCC2)cc1CN1CCCNCCNCCCNCC1	MT-4		RF	0.08 µg/mL
Clc1nc(Cl)c2[nH]cnc2n1	MT-4	RT M41L A62V T69SSS insertion V75V/A M184I L210W T215Y	SW3-10125R	23.17 µM
COC(=O)c1cc(CN2CCCNCCNCCCNCC2)ccc1CN1CCCNCCNCCCNCC1	MT-4		AOM	0.87 µg/mL
Cc1c(O)cccc1C(=O)N[C@@H](CSc1ccccc1)[C@H](O)CN1C[C@H]2CCCC[C@H]2C[C@H]1C(=O)NC(C)(C)CO	CEM + CEM-SS		RF	0.0342 µM
Cc1cn([C@@H]2O[C@H](CO[Si](C)(C)C(C)(C)C)C3(OS(=O)(=O)C=C3N)[C@H]2O[Si](C)(C)C(C)(C)C)c(=O)n(C)c1=O	MT-4		IIIB Recombinant wild type	0.00422 µM
CCOCn1c(SCC(N)=O)nc(C(C)C)c1CC1CCCCC1	MT-4		IIIB	2.11 µM
O=[N+]([O-])c1cc(CN2CCCNCCNCCCNCC2)cc(CN2CCCNCCNCCCNCC2)c1	SupT1 + Sup-T1		168.10	0.02 µg/mL
CC(C)Nc1cccnc1N1CCN(C(=O)c2cc3cc(NS(C)(=O)=O)ccc3[nH]2)CC1	MT-4		IIIB	0.01 µM
CN(C)c1cccc2c1nc(-c1c(F)cccc1F)n2Cc1c(F)cccc1F	MT-4	RT-M184I		0.16 µM
Cc1cccc(Cc2cc(=O)[nH]c(OCC(C)C)n2)c1	MT-4		IIIB	1.8 µM